Reference: PMC7823712, “Synthesis and Antiplasmodial Activity of Novel Bioinspired Imidazolidinedione Derivatives” (Biomolecules, 2020)

Tested on: P. falciparum W2 (CQ-resistant) strain
Test: P. falciparum drug susceptibility assay (pLDH), W2 strain
Assay type: cell-based, Plasmodium falciparum
Details: RI = IC50 CQ resistant P. falciparum strain/IC50 CQ sensitive P. falciparum strain
Protocol: Plasmodium falciparum cultures were carried out according to Trager and Jensen, with slight modifications. The CQ-susceptible strain D10 and the CQ-resistant strain W2 were maintained at 5% hematocrit (human type A-positive red blood cells) in RPMI 1640 (EuroClone, Milan, Italy) medium with the addition of 1% AlbuMax (Invitrogen, Milan, Italy), 0.01% hypoxanthine, 20 mM Hepes, and 2 mM glutamine. All the cultures were maintained at 37 °C in a standard gas mixture consisting of 1% O2, 5% CO2, and 94% N2. Compounds were dissolved in DMSO and then diluted with medium to achieve the required concentrations (final DMSO concentration < 1%, which is non-toxic to the parasite). Drugs were placed in 96-well flat-bottomed microplates starting from the concentration of 20 µg/mL and 8 serial two-fold dilutions were made. Asynchronous cultures with parasitaemia of 1–1.5% and 1% final hematocrit were aliquoted into the plates and incubated for 72 h at 37 °C. Parasite growth was determined spectrophotometrically (OD650) by measuring the activity of the parasite lactate dehydrogenase (pLDH), according to a modified version of the method of Makler in control and drug-treated cultures. The antimalarial activity is expressed as 50% inhibitory concentrations (IC50); […]

`CCN(CC)CCCC(C)Nc1ccnc2cc(Cl)ccc12` (stereo not shown) [CQ, Chloroquine, reference compound] gave an RI of 13.44.
